A mixed list of measured activities; the numbers were collected in NIAID ChemDB.

All rows: host cell toxicity; cells: CEM; measure: CC50

Lines come from different laboratories, so protocols vary.

compound	method	result
N#C/C(=C/c1ccc(Cl)cc1Cl)S(=O)(=O)c1cccc[n+]1[O-]	cell count	8.1 µg/mL
CCOC(=O)COc1cc(NC(=S)OC(C)C)ccc1Cl		124 µM
CCC1=C(C(=O)Nc2ccc(Cl)c(C(=O)OC3CCCCC3)c2)SCCO1		11.4 µg/mL
Cc1ccc(N2C(=O)CCC2(C#N)c2ccc(OCc3ccc(Cl)cc3Cl)cc2)cc1	absorbance	6.6 µM
CC(C)OC(=O)c1cc(NC(=S)c2ccsc2)ccc1Cl		4.3 µg/mL
O=S(Cc1ccccc1)c1cccc[n+]1[O-]	cell count	20 µg/mL
O=C(c1cccc(F)c1)c1ccc2c(c1)sc(=O)n2Cc1ccccc1		3.1 µg/mL
O=S(=O)(Cc1ccc(Cl)cc1)c1cccc[n+]1[O-]	cell count	25 µg/mL
CC(C)CN(C[C@@H](O)[C@H](Cc1ccccc1)NC(=O)COc1ccc2ccccc2c1)S(=O)(=O)c1ccc(Br)cc1	MTT	65.8 µM
COC1=C(C2=C(Cl)C(=O)c3ccccc3C2=O)C(=O)c2ccc3c(c2C1=O)C=C[C@@](C)(CCC=C(C)C)O3	MTT	5.4 µM
N[C@@H]1Cc2ccc(c(Cl)c2)Oc2cc3cc(c2O)Oc2ccc(cc2Cl)[C@@H](O)[C@@H]2NC(=O)[C@H](NC(=O)[C@@H]3NC(=O)C(c3cc(O)cc(Oc4cc(C5NC(=S)N(c6ccccc6)C5=O)ccc4O)c3)NC1=O)c1ccc(O)c(c1)-c1c(O)cc(O)cc1[C@@H](C(=O)O)NC2=O	cell count	>250 µM
CCC(C)OC(=O)c1cc(NC(=S)OC(C)C)ccc1Cl		18.19 µM
Cc1ccc(C)c(CS(=O)(=O)c2cccc(Cl)[n+]2[O-])c1	cell count	4 µg/mL
Cc1ccsc1C(=S)Nc1ccc(Cl)c(/C=N/OC(C)C)c1		13 µg/mL
Cc1ccc(C)c(C(Cl)S(=O)(=O)c2cc(C)cc[n+]2[O-])c1	cell count	>100 µg/mL
CC(=O)n1c(=O)sc2cc(C(=O)c3ccccc3)ccc21		6.1 µg/mL
C#CCOc1cc(NC(=S)c2ccoc2C)ccc1Cl		18 µg/mL
CCOC(=O)c1cc(NC(=S)OC(C)C)ccc1Cl		9.2 µM
Cc1sccc1C(=S)Nc1ccc(Cl)c(OCCC(C)C)c1		>100 µg/mL
Cc1ccc(C)c(C(C)S(=O)(=O)c2ccc(C)c[n+]2[O-])c1	cell count	≥100 µg/mL
Cc1cn([C@@H]2OC3CN[C@@]4(OCC(C)C)CS(=O)(=O)O[C@@]34[C@H]2O[Si](C)(C)C(C)(C)C)c(=O)[nH]c1=O		21.1 µM
Cc1ccc(C)c(C(c2ccccc2)S(=O)(=O)c2cccc[n+]2[O-])c1	cell count	43 µg/mL
COC(=O)[C@H]1NC(=O)[C@H]2NC(=O)[C@H](NC(=O)[C@@H]3NC(=O)[C@H]4NC(=O)[C@@H](Cc5ccc(c(Cl)c5)Oc5cc3cc(c5O)Oc3ccc(cc3Cl)[C@H]2O)NC(=O)[C@H](N)c2ccc(O)c(c2)Oc2cc(O)cc4c2)c2ccc(O)c(c2)-c2c(O)cc(O)cc21	cell count	248 µM
Cc1ccc(C)c(CS(=O)(=O)c2ccc(Cl)c[n+]2[O-])c1	cell count	4.9 µg/mL
Cc1sccc1C(=S)Nc1ccc(Cl)c(/C=N/OC(C)(C)C)c1		12 µg/mL
O=S(=O)(Cc1ccc(Cl)c(Cl)c1)c1cccc[n+]1[O-]	cell count	2.9 µg/mL
CO/N=C(\C)COc1cc(NC(=S)OC(C)C)ccc1Cl		16.93 µM
Cc1occc1C(=S)Nc1ccc(Cl)c(OC2CCCCC2)c1		5.3 µg/mL
CC(=O)ONc1ccc(S(=O)(=O)N(CC(C)C)C[C@@H](O)[C@H](Cc2ccccc2)NC(=O)CN2C(=O)c3ccccc3S2(=O)=O)cc1	MTT	>100 µM
Cc1c(C(=S)Nc2ccc(Cl)c(/C=N/OC(C)(C)C)c2)ccn1C		6.5 µg/mL
CCCCCCCCCCCCCCCCCCNCc1c(O)cc2c(c1O)-c1cc(ccc1O)[C@H]1NC(=O)[C@@H]3NC(=O)[C@H]4NC(=O)[C@@H](Cc5ccc(c(Cl)c5)Oc5cc3cc(c5O)Oc3ccc(cc3Cl)[C@@H](O)[C@H](NC1=O)C(=O)N[C@@H]2C(=O)O)NC(=O)[C@H](N)c1ccc(O)c(c1)Oc1cc(O)cc4c1	cell count	22 µM
CC(C)=CCCC1(C)C=Cc2c(ccc3c2C(=O)C(=O)C(C2=C(I)C(=O)c4ccccc4C2=O)=C3O)O1	MTT	4.3 µM
[O-][n+]1ccccc1SCc1ccccc1	cell count	>100 µg/mL
CC1=C(C(=S)Nc2ccc(Cl)c(/C=N/OC(C)(C)C)c2)CCO1		11 µg/mL
CC(=O)ONc1ccc(S(=O)(=O)N(Cc2ccccc2)C[C@@H](O)[C@H](Cc2ccccc2)NC(=O)[C@H](CC(C)C)N2C(=O)c3ccccc3C2=O)cc1	MTT	>100 µM
COC(=O)c1cc(NC(=S)OC(C)C)ccc1Cl		146 µM
Cc1cn([C@@H]2O[C@@H]3CN[C@@]4(OCC(C)(C)C)CS(=O)(=O)O[C@@]34[C@H]2O[Si](C)(C)C(C)(C)C)c(=O)[nH]c1=O		21.5 µM
CCCCCCCC(Sc1cccc[n+]1[O-])c1cc(C)c(C)c(C)c1	cell count	20 µg/mL
Cc1sccc1C(=O)Nc1ccc(Cl)c(OCC2CCCC2)c1		5 µg/mL
CC(C)CN(C[C@@H](O)[C@H](Cc1ccccc1)NC(=O)[C@H](C(C)C)N1C(=O)c2ccccc2C1=O)S(=O)(=O)c1ccc(Br)cc1	MTT	>100 µM
O=c1ccn([C@@H]2C[C@@H](F)[C@H](CO)O2)c(=O)[nH]1		>100 µM
CN1CCN(C(=O)c2ccc3c(=O)c4ccccc4[nH]c3c2)CC1		43.09 µM
Cc1sccc1C(=S)Nc1ccc(Cl)c(C(=O)OC(C)C)c1		5.9 µg/mL
CCO[C@]12CS(=O)(=O)O[C@@]13C(CN2)O[C@@H](n1cc(C)c(=O)[nH]c1=O)[C@@H]3O[Si](C)(C)C(C)(C)C		25 µM
COC(=S)Nc1ccc(Cl)c(C(=O)OC(C)C)c1		122 µM
C=CCOc1cc(NC(=S)c2sccc2C)ccc1OC		7.1 µg/mL
COC1=C(C2=C(Br)C(=O)c3ccccc3C2=O)C(=O)c2ccccc2C1=O	MTT	5.4 µM
Cc1ccccc1C(=S)Nc1ccc(Cl)c(C(=O)OC(C)C)c1		5.8 µg/mL
CCC(CC)COC(=O)c1cc(NC(=S)OC(C)C)ccc1Cl		18.16 µM
O=C(c1cccc(Br)c1)c1ccc2[nH]c(=O)sc2c1		10 µg/mL
O=S(=O)(Cc1cccc(F)c1)c1cccc[n+]1[O-]	cell count	19 µg/mL
CCO[C@]12CS(=O)(=O)O[C@@]13[C@@H](CN2)O[C@@H](Sc1ccccc1)[C@@H]3O[Si](C)(C)C(C)(C)C		131 µM
Cc1sccc1C(=O)Nc1ccc(Cl)c(C(=O)OC2CCCCC2)c1		6.5 µg/mL
CCS[C@]12CS(=O)(=O)O[C@@]13[C@@H](CN2)O[C@@H](n1cc(C)c(=O)[nH]c1=O)[C@@H]3O[Si](C)(C)C(C)(C)C		80.6 µM
CC(=O)ONc1ccc(S(=O)(=O)N(Cc2ccccc2)C[C@@H](O)[C@H](Cc2ccccc2)NC(=O)CN2C(=O)c3ccccc3C2=O)cc1	MTT	>100 µM
Cc1cn([C@@H]2O[C@@H]3CN[C@@]4(OCC5CCOC5)CS(=O)(=O)O[C@@]34[C@H]2O[Si](C)(C)C(C)(C)C)c(=O)[nH]c1=O		72 µM
CC(C)c1cc(CS(=O)(=O)c2cccc[n+]2[O-])c(C(C)C)cc1Br	cell count	4.4 µg/mL
CC(C)OC(=S)Nc1ccc(Cl)c(C(=O)OC2CCCC2)c1		13.75 µM
CC(=O)ONc1ccc(S(=O)(=O)N(CC(C)C)C[C@@H](O)[C@H](Cc2ccccc2)NC(=O)[C@H](C)N2C(=O)c3ccccc3C2=O)cc1	MTT	>100 µM
COc1ccc(NC(=S)c2ccoc2C)cc1CC(=O)OC(C)C		>100 µg/mL
CC(C)OC(=S)Nc1ccc(Cl)c(C(=O)OC(C)(C)C)c1		14.9 µM
COC1=C(C2=C(Cl)C(=O)c3ccccc3C2=O)C(=O)c2cc(OC)ccc2C1=O	MTT	2.5 µM
C=C(C)COC(=O)c1cc(NC(=S)c2ccoc2C)ccc1Cl		6.7 µg/mL
CC(C)Oc1ccc(C2(C#N)CCC(=O)N2c2ccccc2)cc1	absorbance	>100 µM
CCCCC(=O)c1ccc2c(c1)oc(=O)n2CCN1CCCCC1		26 µg/mL
Cc1cn([C@@H]2C[C@@H](F)[C@H](CO)O2)c(=O)[nH]c1=O		>100 µM
CC(C)c1ccc(C(C)C)c(CS(=O)(=O)c2cccc[n+]2[O-])c1	cell count	6.4 µg/mL
CN(Cc1ccc(Cl)cc1)Cc1c(O)cc2c(c1O)-c1cc(ccc1O)[C@H]1NC(=O)[C@@H]3NC(=O)[C@H]4NC(=O)[C@@H](Cc5ccc(c(Cl)c5)Oc5cc3cc(c5O)Oc3ccc(cc3Cl)[C@@H](O)[C@H](NC1=O)C(=O)N[C@@H]2C(=O)O)NC(=O)[C@H](N)c1ccc(O)c(c1)Oc1cc(O)cc4c1	cell count	>100 µM
CC(C)OC(=O)c1cc(NC(=O)OCC2CC2)ccc1Cl		22.45 µM
CC1(C)C=Cc2c(ccc3c2C(=O)C(=O)C(C2=C(Cl)C(=O)c4ccccc4C2=O)=C3O)O1	MTT	5.5 µM
c1ccc(CSc2ccccn2)cc1	cell count	51 µg/mL
C#CCOC(=O)c1cc(NC(=S)OC(C)C)ccc1Cl		51.32 µM
Cc1ccccc1CS(=O)c1cccc[n+]1[O-]	cell count	52 µg/mL
CSc1ccc(NC(=S)OC(C)C)cc1C(=O)OC(C)C		>305 µM
O=S(Cc1ccc(F)cc1)c1cccc[n+]1[O-]	cell count	87 µg/mL
Cc1occc1C(=S)Nc1ccc(Cl)c(OCCC(C)C)c1		>100 µg/mL
Cc1ccc(C)c(C(CCCCCCBr)S(=O)(=O)c2cccc[n+]2[O-])c1	cell count	6.7 µg/mL
Cc1ccc(N2C(=O)CCC2(CN)c2ccccc2OCc2ccccc2)cc1	absorbance	47.9 µM
COc1ccccc1C(=S)Nc1ccc(Cl)c(C(=O)OC2CCCCC2)c1		12 µg/mL
CSC(=Nc1ccc(Cl)c(C(=O)OC(C)C)c1)OC(C)C		72.32 µM
O=c1[nH]cnc2c1ncn2[C@@H]1C[C@@H](F)[C@H](CO)O1		>100 µM
C=CCOC(=O)c1cc(NC(=S)OC(C)C)ccc1Cl		66.92 µM
CO/N=C/c1cc(NC(=O)c2ccoc2C)ccc1OC		>100 µg/mL
COc1ccc(C(=O)N2CCCC2(C#N)c2ccccc2)cc1[N+](=O)[O-]	absorbance	>100 µM
CC(C)OC(=O)Oc1cc(NC(=S)OC(C)C)ccc1Cl		226 µM

The first 11 rows once more:

compound | method | result
N#C/C(=C/c1ccc(Cl)cc1Cl)S(=O)(=O)c1cccc[n+]1[O-] | cell count | 8.1 µg/mL
CCOC(=O)COc1cc(NC(=S)OC(C)C)ccc1Cl |  | 124 µM
CCC1=C(C(=O)Nc2ccc(Cl)c(C(=O)OC3CCCCC3)c2)SCCO1 |  | 11.4 µg/mL
Cc1ccc(N2C(=O)CCC2(C#N)c2ccc(OCc3ccc(Cl)cc3Cl)cc2)cc1 | absorbance | 6.6 µM
CC(C)OC(=O)c1cc(NC(=S)c2ccsc2)ccc1Cl |  | 4.3 µg/mL
O=S(Cc1ccccc1)c1cccc[n+]1[O-] | cell count | 20 µg/mL
O=C(c1cccc(F)c1)c1ccc2c(c1)sc(=O)n2Cc1ccccc1 |  | 3.1 µg/mL
O=S(=O)(Cc1ccc(Cl)cc1)c1cccc[n+]1[O-] | cell count | 25 µg/mL
CC(C)CN(C[C@@H](O)[C@H](Cc1ccccc1)NC(=O)COc1ccc2ccccc2c1)S(=O)(=O)c1ccc(Br)cc1 | MTT | 65.8 µM
COC1=C(C2=C(Cl)C(=O)c3ccccc3C2=O)C(=O)c2ccc3c(c2C1=O)C=C[C@@](C)(CCC=C(C)C)O3 | MTT | 5.4 µM
N[C@@H]1Cc2ccc(c(Cl)c2)Oc2cc3cc(c2O)Oc2ccc(cc2Cl)[C@@H](O)[C@@H]2NC(=O)[C@H](NC(=O)[C@@H]3NC(=O)C(c3cc(O)cc(Oc4cc(C5NC(=S)N(c6ccccc6)C5=O)ccc4O)c3)NC1=O)c1ccc(O)c(c1)-c1c(O)cc(O)cc1[C@@H](C(=O)O)NC2=O | cell count | >250 µM

An empty or dashed field is not shown. CCn: concentration that lowers growth or viability of the cells by n%.